This note sets out measurements from the supplement of paper PMC9931576.

What all share (experiment): pseudovirus neutralization IC50; higher = weaker neutralization
Assay [1] has as its target SARS-CoV-2 Omicron BA.1 spike pseudovirus. Here is the method:
(§1)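 Single-round VSV luciferase pseudovirus mixed with antibody dilutions for 1 h and put on Huh-7 cells for about a day; IC50 from the dose curve.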

Assay [2] concerns the target SARS-CoV-2 Omicron BA.2 spike pseudovirus. Here is the method: as §1
For assay [3], the target named is SARS-CoV-2 Omicron BA.2.75 spike pseudovirus. Here is the method: as §1
The target of assay [4] is SARS-CoV-2 Omicron BA.5 spike pseudovirus. Here is the method: as §1
In assay [5] the target is SARS-CoV-2 Omicron BQ.1.1 spike pseudovirus. Here is the method: as §1
Assay [6] addresses SARS-CoV-2 Omicron XBB spike pseudovirus. Here is the method: as §1
Assay [7] concerns the target SARS-CoV-2 early D614G spike pseudovirus. Here is the method:
as §1

Human monoclonal antibodies against the spike receptor-binding domain (heavy:light variable regions). IC50 against pseudoviruses bearing the spike of naturally observed variants; lower = stronger; >10 µg/ml means not reached at the top dose. No active / inactive call. The stated detection limit is 0.0005 µg/ml; values near or below 0.001 µg/ml lie at the floor of the assay.

B1: BD55-5593 (protein)
chain 1: EVELVESGGGLVQPGGSLRLSCAASGFAFSSHEMTWVRQAPGKGLEWIAYISSSGYSIYYADSVKGRFVISRDDAKNSLFLQMNSPRSEDTAIYYCARVLNRGPVAGTLLDYWGQGTLVTVSS
chain 2: QSVLTQPPSVSGAPGQRVTISCTGSSSNIGAGYAVHWYQQLPGAPPKLLIYHNSNRPSDVPDRFAGSTSGTSASLAITGLQAEDEADYYCLSYETSLLSAFYVFGTGTRVTV
In the case of B1, the “pseudovirus neutralization IC50” value in assay [1] turned out to be 3.09 µg/mL; in assay [2], 2.99 µg/mL; in assay [3], 3.28 µg/mL; in assay [4], 3.33 µg/mL; in assay [5], 4.32 µg/mL; in assay [6] it was 4 µg/mL. Moreover, in assay [7], the “pseudovirus neutralization IC50” value is 2.47 µg/mL.

B2: BD55-5612 (protein)
chain 1: QLQLQESGPGLVKPSETLSLTCSVSGGSINSNLDYWGWIRQPPGKGLEWIGTISSGGNTYYSPSLKSRVTIVVDTSKNHFSLKLTSVTAADTAVYYCARSRGDYHYYYFYGLDVWGQGTTVTVSS
chain 2: SYELTQPPSVSVSPGQTAGITCSGDALPNQYSYWYQQKPGQAPLLLIYKDNERPSEIPERFSGSSSGTTVALTISGVQAEDEADYYCQSSDRSGNVVFGGGTKLTVL
For B2, the “pseudovirus neutralization IC50” value in assay [1] is 0.246 µg/mL; in assay [2], 0.658 µg/mL; in assay [3], 0.869 µg/mL; in assay [4], 1.79 µg/mL; in assay [5], over 10 µg/mL; in assay [6] it was over 10 µg/mL. In assay [7], the “pseudovirus neutralization IC50” value was found to be 0.00262 µg/mL.

B3: BD55-5617 (protein)
chain 1: QMQLVQSGPEVKKPGTSVKVSCKASGFTFSSSAVQWVRQARGQRLEWIGWIEVGSGDTNYAQRFQDRVTISRDMSTSTAYMELRSLRSEDTAVYYCAAKVIGGYWYFDLWGRGSLITVSS
chain 2: DIQMTQSPSSLSASVGDRVTITCRASQGIGNYLAWYQQKPGEAPKLLIYDASTLQYGVPSRFSGSGSGTDFTLTISSLQPEDVAIYYCQKFNSDPYTFGQGTKLEIK
As for B3, the “pseudovirus neutralization IC50” value in assay [1], in assay [2], in assay [3], in assay [4], in assay [5] and in assay [6] was over 10 µg/mL throughout. In assay [7], the “pseudovirus neutralization IC50” value is over 10 µg/mL.

B4: BD55-5589 (protein)
chain 1: QVTLKESGPVLVRPTETLTLTCTVSGFSLRNARMGVSWIRQPPGKALEWLAHIFSDDEYSYRTSLHTRLTLSKDTSKSQVVLTMTNMDPVDTATYFCARIYDTSGFYYFDYWGQGTLVTVSS
chain 2: DIQMTQSPSSLSASVGDRVTITCRASQSISMYLNWYQQRPGKAPNLLIYAASNLLSGVPSRFSGSGSGTDFTLTISSLQPEDFATYYCQQSYSTPPYTFGQGTKLEIK
B4: the “pseudovirus neutralization IC50” value in assay [1], in assay [2], in assay [3], in assay [4], in assay [5] and in assay [6] was over 10 µg/mL throughout. Also, the “pseudovirus neutralization IC50” value in assay [7] was over 10 µg/mL.

B5: BD55-5598 (protein)
chain 1: QVQLVQSGAEVKKPGSSVKVSCKASGGTFSSYAVIWVRQAPGQGLQWMGGIIPLLGRKIYAREFQGRVTLTADGSTDTAFLELSSLRPGDTAVYFCARSSQTSSWDPFLDYWGQGTLVSVPS
chain 2: QSVLTQPPSASGTPGQRVTISCSGSSSNIGGNSVNWYQQVPGAAPKLLIYSNYQRPSGVSDRFSGSWSGTSASLAISGLQSEDEANYYCAAWDDSLNAVVFGGGTKLTVL
As to B5, the “pseudovirus neutralization IC50” value in assay [1] is 2.28 µg/mL; in assay [2], 3.01 µg/mL; in assay [3] it was 1.41 µg/mL; in assay [4], 5.41 µg/mL; in assay [5], 5.28 µg/mL; in assay [6] it was 2.79 µg/mL. Further, the “pseudovirus neutralization IC50” value in assay [7] was determined as 2.25 µg/mL.

B6: BD55-5591 (protein)
chain 1: QVQLLQSGAEVKKPGSSVTVSCKASGGTFTNSAINWVRQAPGQGLEWMGGVIPIFGPTNYAEKFQGRVTITADESTSTAYLDLSSLRSEDTAVYYCARAHCGDCTPPRGYYFYYFGMDVWGQGTTVTVSS
chain 2: SYELTQPPSVSVSPGQTARITCSGDALSNQYAYWYQQRPGQAPVLLMYKDNERPSGIPERFSGSNSGTTVTLTVSGVQAEDEADYYCQSADTTSTYVVFGGGTKLTVL
Turning to B6, the “pseudovirus neutralization IC50” value in assay [1] was 0.00316 µg/mL; in assay [2], 0.0143 µg/mL; in assay [3], 0.0349 µg/mL; in assay [4], 0.0167 µg/mL; in assay [5], over 10 µg/mL; in assay [6], over 10 µg/mL. The “pseudovirus neutralization IC50” value in assay [7] was 0.00178 µg/mL.
